Here are results for one molecule from publication PMC10653858 (mBio, 2023).

The assay concerns the target T1, biotin-conjugated histone H3 (1-21aa) peptide, …-GGK(Biotin)-NH2 (biotin on the C-terminal lysine; C-terminal amide).
T1 construct: also called p1
As to the kind of experiment: pull-down.

B1: GST-tagged LegAS4-Asn493Tyr (enzyme)
chain: MIILYDFLQESSVMPRSKNDSKLKKKSALQSKFKEQQLNHGSKEHKSKFKFSQRKAKKKGPGMTHLPGNIYTLFTPVNGPKSKDEWIDTSKIMLDLHIDNMSSSDYIPSAIDRTDLVMVQSVHLLRKTGGRGLFAREDIPKGTCIGIYTGEVYSEQEFEQYLKEHVGSDKSYAMYVGGRVIDAARKGNLTRYINFSDSQDNAEFVETTLNRKKVAKVITTKNIKAGQQLLINYNTYEEQASRYYYFLNPGDGWLSAQEFYQTYQSQYRLEQMPYNLEGFDLKAGDRVLMTQIGRIILANYSLAKEQELNASDIDLPFLKVGSDEKILDFDEADTFTPLMAACYLGQVENVKWLIEHGANIDQQQSHSGHCPLSLTLKGYSLAKDTQKYIDIIQLLIKNQVNLLVHDRSDKTFLHNAALVLNNLDFQSVVKFLIGQNPIDINEYFTYIDENDFDIVMHCYNNKLFDKALVLLAFYPDYFKRNYMSDNEGHNQFYINAFRKAIKDFNSNERSILLMQLRESGLHLPEDLLEQLGIMDSSITLESKFF
For the molecule B1, the binding result is on record as “binds”.
